Earlier results on three substances are cited in patent US20150045422A1 (priority 2005, published 2015).

Some test systems named below: HL (lymphocyte); HEp2 (epidermoid); HeLa (uterine); HEK (kidney).
Holding throughout (conditions): Table 3
In series [1] the test system is Herpes Simplex Virus Type 2 (HSV2).

As to Verrucarin A, in the series with HL (lymphocyte), the “PSR Potency in Human Cells (IC50) HL” value is 3 ng/mL. In the series on HEp2 (epidermoid), the “PSR Potency in Human Cells (IC50) HEp2” value was 1 ng/mL. Also, in the series with HeLa (uterine), the “PSR Potency in Human Cells (IC50) HeLa” value was 5 ng/mL. In the series with HEK (kidney), the “PSR Potency in Human Cells (IC50) HEK” value is 2 ng/mL.

Regarding Satratoxin G, the “PSR Potency in Human Cells (IC50) HSV2” value in series [1] is 1.5 ng/mL. For the same substance, the “PSR Potency in Human Cells (IC50) HEp2” value in the series on HEp2 (epidermoid) was 2 ng/mL.

For the substance Roridin A, the “PSR Potency in Human Cells (IC50) HL” value in the series on HL (lymphocyte) is 3 ng/mL. Further, the “PSR Potency in Human Cells (IC50) HSV2” value in series [1] is 1.4 ng/mL. Further, the “PSR Potency in Human Cells (IC50) HEp2” value in the series with HEp2 (epidermoid) is 2 ng/mL. The “PSR Potency in Human Cells (IC50) HeLa” value with HeLa (uterine) was 3 ng/mL. Further, the “PSR Potency in Human Cells (IC50) HEK” value with HEK (kidney) was 3 ng/mL.
